{"source": "patent US12583911B2", "about": "“Human immunodeficiency virus GP120 binding proteins” (ViiV Healthcare UK (No.5) Limited, priority 2022, dated 2026)", "key": {"[1]": {"system": "panel of HIV-1 envelopes (pseudotyped HIV-1 virus)", "assay": "PSV assay (ACTOne cells), HIV-1 envelopes", "assay_type": "cell-based", "experimental": "(§1) The anti-viral activity of the antigen binding proteins was measured in a pseudotyped virus (PSV) assay.\n(§2) PSV was produced in HEK-293T cells (ATCC, Manassas VA) by co-transfecting expression plasmids encoding the HIV-1 gp160 envelope gene and an HIV-1 backbone plasmid using TRANSIT-2020 transfection reagent (Mirus Bio, Madison WI). A panel of HIV-1 PSVs expressing different gp160 envelope trimers was generated to evaluate the effectiveness of the antigen binding proteins of the invention against a wide spectrum of HIV-1 strains.\n(§3) The genome of PSV used in this assay contains a luciferase gene that is expressed once the virus enters cells. Accordingly, the luminescence signal (after adding a substrate of luciferase) can be used to determine the level of viral infection.\nThe 50% tissue culture infectious dose (TCID) of a single thawed aliquot of each batch of PSV was determined in ACTOne cells. The ACTOne cell-line used in this assay was derived in-house from a genetically engineered 293T cell clone that expresses CD4, CXCR4, and CCR5. Cells were maintained in growth medium composed of Dulbecco's modified Eagle's medium (DMEM, Life Technologies) at 37° C. in a humidified 5% CO2-95% air environment. Cell monolayers were split by treatment with Trypsin-EDTA (0.05%).\nTo run the anti-viral assay, ACTOne cells were detached by treating the cell culture flask with trypsin (trypsinization) and resuspended in growth medium containing 2% of DMSO to a density of 2.5×10^5 cells/ml. One hundred μl of such cells was added to 10 μl of antigen binding protein pre-loaded in a 96-well plate. Ninety μl of PSV was then added to each well. The assay plates were incubated at 37° C. in a humidified incubator at 5% CO2 level. Plates were developed after 72 hours of incubation by adding 50 μl of BRIGHTGLO luciferase reagent (Promega, Madison WI) to each well, and transferring the plates to an ENVISION multilabel plate reader (PerkinElmer, Waltham MA) to measure the luminescence and determine the level of virus that had infected the cells. The higher the luminescence signal, the higher the level of infection."}, "[2]": {"system": "HIV-2 Env-pseudotypes (HIV-2-AID, HIV-2-ATM88, HIV-2-HCC-01)", "assay": "PSV assay (ACTOne cells), HIV-2 envelopes", "assay_type": "cell-based", "conditions": "envelope HIV-2-HCC-01", "experimental": "as §1, §2, §3\nThe 50% tissue culture infectious dose (TCID) of a single thawed aliquot of each batch of PSV was determined in ACTOne cells. The ACTOne cell-line used in this assay was derived in-house from a genetically engineered 293T cell clone that expresses CD4, CXCR4, and CCR5. […]\nTo run the anti-viral assay, ACTOne cells were detached by treating the cell culture flask with trypsin (trypsinization) and resuspended in growth medium containing 2% of DMSO to a density of 2.5×10^5 cells/ml. […] The higher the luminescence signal, the higher the level of infection. […]"}}, "data": [{"molecule": "bNAb7: anti-V3 broadly neutralizing antibody; HC with LS SEQ ID NO:258, LC SEQ ID NO:259 (antibody, LS Fc mutation) heavy: QVHLQESGPGLVKPSETLSLTCNVSGTLVRDNYWSWIRQPLGKQPEWIGYVHDSGDTNYNPSLKSRVHLSLDKSKNLVSLRLTGVTAADSAIYYCATTKHGRRIYGVVAFKEWFTYFYMDVWGKGTSVTVSSASTKGPSVFPLAPSSKSTSGGTAALGCLVKDYFPEPVTVSWNSGALTSGVHTFPAVLQSSGLYSLSSVVTVPSSSLGTQTYICNVNHKPSNTKVDKKV[human IgG1 Fc with changes not given here] light: TFVSVAPGQTARITCGEESLGSRSVIWYQQRPGQAPSLIIYNNNDRPSGIPDRFSGSPGSTFGTTATLTITSVEAGDEADYYCHIWDSRRPTNWVFGEGTTLIVLGQPKAAPSVTLFPPSSEELQANKATLVCLISDFYPGAVTVAWKADSSPVKAGVETTTPSKQSNNKYAASSYLSLTPEQWKSHRSYSCQVTHEGSTVEKTVAPTECS", "values": [{"measurement": "IC50", "setting": "[1]; envelope 93UG065, PSV assay", "result": "> 500", "unit": "nM"}, {"measurement": "IC50", "setting": "[1]; envelope 0260.v5.c36, PSV assay", "result": 0.75, "unit": "nM"}, {"measurement": "IC50", "setting": "[1]; envelope 928_28, PSV assay", "result": 32.7, "unit": "nM"}, {"measurement": "IC50", "setting": "[1]; envelope 3326_V4_C3, PSV assay", "result": "> 500", "unit": "nM"}, {"measurement": "IC50", "setting": "[1]; envelope 3468_V1_C12, PSV assay", "result": "> 500", "unit": "nM"}, {"measurement": "IC50", "setting": "[1]; envelope 3637_V5_C3, PSV assay", "result": "> 500", "unit": "nM"}, {"measurement": "IC50", "setting": "[1]; envelope 6471_V1_C16, PSV assay", "result": "> 500", "unit": "nM"}, {"measurement": "IC50", "setting": "[1]; envelope 42368, PSV assay", "result": "> 500", "unit": "nM"}, {"measurement": "IC50", "setting": "[1]; envelope 620345_C1, PSV assay", "result": "> 500", "unit": "nM"}, {"measurement": "IC50", "setting": "[1]; envelope Q461_E2, PSV assay", "result": "> 500", "unit": "nM"}, {"measurement": "IC50", "setting": "[1]; envelope TH976_17, PSV assay", "result": "> 500", "unit": "nM"}, {"measurement": "IC50", "setting": "[1]; envelope X2088.C9, PSV assay", "result": 0.22, "unit": "nM"}, {"measurement": "IC50", "setting": "[1]; envelope YU-2, PSV assay", "result": 0.58, "unit": "nM"}, {"measurement": "IC50", "setting": "[1]; envelope ZM106.9, PSV assay", "result": 0.04, "unit": "nM"}]}, {"molecule": "D1m-K8C-G99C_1xG4S_bNAb10: bispecific: D1m-K8C-G99C fused via 1xG4S to bNAb10 heavy chain; SEQ ID NOs 341 + 274 (antibody) heavy: KKVVYGKCGDTVELTCTASQKKNIQFHWKNSNQIKILGNQGSFLTKGPSKLNDRVDSRRSLWDQGNFPLIIKNLKPEDSDTYICEVEDQKEEVQLVVVCGGGGSQPQLQESGPGLVEASETLSLTCTVSGDSTAACDYFWGWVRQPPGKGLEWIGGLSHCAGYYNTGWTYHNPSLKSRLTISLDTPKNQVFLKLNSVTAADTAIYYCARFDGEVLVYHDWPKPAWVDLWGRGTLVTVTVSSASTKGPSVFPLAPSSKSTSGGTAALGCLVKDYFPEPVTVSWNSGALTSGVHTFPAVLQSSGLYSLSSVVTVPSSSLGTQTYICNVNHKPSNTKVDKKV[human IgG1 Fc with changes not given here] light: QSALTQPPSASGSPGQSISISCTGTSNRFVSWYQQHPGKAPKLVIYGVNKRPSGVPDRFSGSKSGNTASLTVSGLQTDDEAVYYCSSLVGNWDVIFGGGTKLTVLGQPKAAPSVTLFPPSSEELQANKATLVCLISDFYPGAVTVAWKADSSPVKAGVETTTPSKQSNNKYAASSYLSLTPEQWKSHRSYSCQVTHEGSTVEKTVAPTECS", "values": [{"measurement": "IC50", "setting": "[2]", "result": 0.95, "unit": "nM"}]}, {"molecule": "D1m-K8C-G99C_1xG4S_bNAb11: bispecific: D1m-K8C-G99C fused via 1xG4S to bNAb11 heavy chain; SEQ ID NOs 342 + 279 (antibody) heavy: KKVVYGKCGDTVELTCTASQKKNIQFHWKNSNQIKILGNQGSFLTKGPSKLNDRVDSRRSLWDQGNFPLIIKNLKPEDSDTYICEVEDQKEEVQLVVVCGGGGSQPQLQESGPGLVEASETLSLTCTVSGDSTGRCNYFWGWVRQPPGKGLEWIGSLSHCRSYYNTDWTYHNPSLKSRLTISLDTPKNQVFLRLTSVTAADTATYYCARFGGEVLVYRDWPKPAWVDLWGRGTLVTVSSASTKGPSVFPLAPSSKSTSGGTAALGCLVKDYFPEPVTVSWNSGALTSGVHTFPAVLQSSGLYSLSSVVTVPSSSLGTQTYICNVNHKPSNTKVDKKV[human IgG1 Fc with changes not given here] light: QSALTQPPSASGSPGQSITISCTGTSNNFVSWYQQYPGKAPKLVIYEVNKRPSGVPDRFSGSKSGSTASLTVSGLQADDEGVYYCSSLVGNWDVIFGGGTKLTVLGQPKAAPSVTLFPPSSEELQANKATLVCLISDFYPGAVTVAWKADSSPVKAGVETTTPSKQSNNKYAASSYLSLTPEQWKSHRSYSCQVTHEGSTVEKTVAPTECS", "values": [{"measurement": "IC50", "setting": "[2]", "result": 8.69, "unit": "nM"}]}, {"molecule": "bNAb19: anti-V3 broadly neutralizing antibody; HC with LS SEQ ID NO:318, LC SEQ ID NO:319 (antibody, LS Fc mutation) heavy: EVQLVESGGGLVKAGGSLILSCGVSNFRISAHTMNWVRRVPGGGLEWVASISTSSTYRDYADAVKGRFTVSRDDLEDFVYLQMHKMRVEDTAIYYCARKGSDRLSDNDPFDAWGPGTVVTVSPASTKGPSVFPLAPSSKSTSGGTAALGCLVKDYFPEPVTVSWNSGALTSGVHTFPAVLQSSGLYSLSSVVTVPSSSLGTQTYICNVNHKPSNTKVDKKV[human IgG1 Fc with changes not given here] light: DVVMTQSPSTLSASVGDTITITCRASQSIETWLAWYQQKPGKAPKLLIYKASTLKTGVPSRFSGSGSGTEFTLTISGLQFDDFATYHCQHYAGYSATFGQGTRVEIKRTVAAPSVFIFPPSDEQLKSGTASVVCLLNNFYPREAKVQWKVDNALQSGNSQESVTEQDSKDSTYSLSSTLTLSKADYEKHKVYACEVTHQGLSSPVTKSFNRGEC", "values": [{"measurement": "IC50", "setting": "[1]; envelope 3326_V4_C3", "result": "> 300", "unit": "nM"}, {"measurement": "IC50", "setting": "[1]; envelope 3468_V1_C12", "result": "> 300", "unit": "nM"}, {"measurement": "IC50", "setting": "[1]; envelope 3637_V5_C3", "result": "> 300", "unit": "nM"}, {"measurement": "IC50", "setting": "[1]; envelope 42368", "result": "> 300", "unit": "nM"}, {"measurement": "IC50", "setting": "[1]; envelope Q461_E2", "result": "> 300", "unit": "nM"}, {"measurement": "IC50", "setting": "[1]; envelope X2088.C9", "result": "> 300", "unit": "nM"}, {"measurement": "IC50", "setting": "[1]; envelope ZM106.9", "result": "> 300", "unit": "nM"}]}]}
